Measured values published in patent US20100179092.

Experiments:
[1] = biological target: HC[…]-3 ([…] CVF with 1 substitution, E1633H)
[2] = biological target: HC[…]-9 ([…] CVF with 5 substitutions from human C3, Q1571S, T1573S, N1576V, P1577Q, and R1578V)

B1: human Factor B (protein)
chain: TPWSLARPQGSCSLEGVEIKGGSFRLLQEGQALEYVCPSGFYPYPVQTRTCRSTGSWSTLKTQDQKTVRKAECRAIHCPRPHDFENGEYWPRSPYYNVSDEISFHCYDGYTLRGSANRTCQVNGRWSGQTAICDNGAGYCSNPGIPIGTRKVGSQYRLEDSVTYHCSRGLTLRGSQRRTCQEGGSWSGTEPSCQDSFMYDTPQEVAEAFLSSLTETIEGVDAEDGHGPGEQQKRKIVLDPSGSMNIYLVLDGSDSIGASNFTGAKKCLVNLIEKVASYGVKPRYGLVTYATYPKIWVKVSEADSSNADWVTKQLNEINYEDHKLKSGTNTKKALQAVYSMMSWPDDVPPEGWNRTRHVIILMTDGLHNMGGDPITVIDEIRDLLYIGKDRKNPREDYLDVYVFGVGPLVNQVNINALASKKDNEQHVFKVKDMENLEDVFYQMIDESQSLSLCGMVWEHRKGTDYHKQPWQAKISVIRPSKGHESCMGAVVSEYFVLTAAHCFTVDDKEHSIKVSVGGEKRDLEIEVVLFHPNYNINGKKEAGIPEFYDYDVALIKLKNKLKYGQTIRPICLPCTEGTTRALRLPPTTTCQQQKEELLPAQDIKALFVSEEEKKLTRKEVYIKNGDKKGSCERDAQYAPGYDKVKDISEVVTPRFLCTGGVSPYADPNTCRGDSGGPLIVHKRSRFIQVGVISWGVVDVCKNQKRQKQVPAHARDFHINLFQVLPWLKEKLQDEDLGFL
- convertase stability (factor B cleavage assay, FIG. 4) [1]: contained one additional residue found in CVF than HC3-1496/1617, yet formed a much less stable convertase
- factor B cleavage activity [1]: rapid factor B cleavage activity
- convertase stability (factor B cleavage assay, FIG. 4) [2]: substituting the amino acid residues found in human C3 into these positions results in a very unstable convertase
